Compound potency records, mixed from different reports. Data source: NIAID ChemDB in PubChem.

All rows: growth or infection tests; agent: Mycobacterium tuberculosis

Rows are shuffled and stem from different studies.

smiles,strain,cell line,read by,measure,tested at,result
CCN(CC)CC[n+]1ccc2c(C)c3[nH]c4ccc(O)cc4c3c(C)c2c1.[Cl][Pt-2]([Cl])([Cl])[Cl].[H+],H37Rv,,resazurin,inhibition,6.25 µg/mL,90%
CCCCCCCCCCCCNC(CC(=O)OCC)c1ccc([N+](=O)[O-])cc1,H37Ra,,,MIC,,>25 µg/mL
O=[N+]([O-])c1cccc(C2Cc3nc4ccc(Cl)cc4c(-c4ccccc4)c3S2)c1,H37Rv,,agar,MIC,,1.86 µM
COc1ccc(C(=O)NC2C(OC(C)=O)OC(COC(C)=O)C(OC(C)=O)C2OC(C)=O)cc1,H37Rv,,BACTEC,inhibition,12.5 µg/mL,-6%
CC(C)c1ccc(C2Cc3nc4ccccc4c(-c4ccccc4)c3S2)cc1,H37Rv,,agar,MIC,,32.76 µM
CCN(CC)Cc1cc(C(C)(C)C)cc(-c2ccccc2)c1O,H37Rv,,BACTEC,inhibition,12.5 µg/mL,84%
O=C(O)CC[N+](=O)[O-],,,fluorescence,MIC,,74 µM
N=C(N)c1ccc(-c2ccc(-c3ccc(C(=N)N)cc3)o2)cc1,H37Rv,,BACTEC,MIC,,64.09 µg/mL
C/C=C1/CN2[C@H]3C[C@@H]1[C@@H](CO)[C@@H]2Cc1c3[nH]c2ccc(OC)cc12,H37Rv,,,MIC,,>200 µg/mL
CCCCCCCCC=CCCCCCCCCNCc1ccc(OC)c(OC)c1,Sensitive strains,,,MIC,,3.12 µg/mL
COc1ccc2ccc(=O)oc2c1CC(=O)C(C)C,H37Rv,,,MIC,,200 µg/mL
C=C/C(C)=C/C[C@H]1C(=C)CCC2[C@]1(C)CCC[C@]2(C)C(=O)O,H37Ra,,,EC50,,14.6 µg/mL
O=C(C1COc2ccccc2O1)N1CCN(Cc2nc(-c3ccsc3)no2)CC1,,,fluorescence,inhibition,20 µM,4%
CCC1NC(=O)C(NC(=O)c2ncccc2O)C(C)OC(=O)C(c2ccccc2)NC(=O)C2CC(=O)CCN2C(=O)C(Cc2ccccc2)N(C)C(=O)C2CCCN2C1=O,H37Rv,,BACTEC,MIC,,≥12.5 µg/mL
O=C(Cc1ccc(Cl)cc1)SCC1CS1,H37Rv,,,MIC,,25 µg/mL
O=C(O)c1ccncc1,CF45,,resazurin,MIC,,>25 µg/mL
N/C(=N\NC(CC(=O)c1ccccc1)c1ccccn1)c1ccccn1,H37Rv,,,MIC,,4 µg/mL
c1csc(-c2nnc(Cc3cccc4ccccc34)o2)c1,,,fluorescence,MIC,,0.4 µM
CCCCCCCCOC(=O)c1cnccn1,KK11-20,,,MBC,,>200 µg/mL
CC(C)=CCc1cc(/C=C/C(=O)c2cc(CC=C(C)C)c(O)cc2O)ccc1O,MTCS2,,resazurin,MIC,,19.53 µg/mL
CCC1CCC2(CC1)SC(C)C(=O)N2NC(=O)C(O)(c1ccccc1)c1ccccc1,H37Rv,,,inhibition,6.25 µg/mL,53%
Clc1ccc2nc3c(c(-c4ccccc4)c2c1)SC(c1ccccc1)C3,H37Rv,,agar,MIC,,16.71 µM
O=C(Nc1nnc(-c2ccccc2Cl)o1)c1cccc(O)c1,H37Rv,,agar,EC90,,0.86 µg/mL
CC(C)N(O)C(=O)C(=O)O,ATCC35801,,,MIC,,>18 µg/mL
O=C1CSC2(CCCCC2)N1NC(=O)C(O)(c1ccccc1)c1ccccc1,H37Rv,,,inhibition,6.25 µg/mL,1%
CC(=O)Oc1c(C)c2c(O)c3c1C1=C(OCOC1=C(C)C3=O)/C(C)=C/[C@@](C)(O)[C@H](O)[C@@H](C)[C@@H](O)[C@H](C(=O)O)[C@H](O)[C@H](C)C(O)[C@H](C)/C=C\C=C(/C)C(=O)N2,H37Rv,,,MIC,,0.1 µg/mL
CC1(C)c2ccccc2-c2nc3ccccc3c3c2C1OC3=O,H37Rv,,BACTEC,MIC bound,,>12.5 µg/mL
CN1N=C(c2ccncc2)OC1c1ccccc1F,6 PI,,,MIC,,>20 µg/mL
Oc1ccc(-c2cc(F)cc(F)c2)cc1-c1nnc(NC2CCCCC2)o1,H37Rv,,BACTEC,inhibition,6.25 µg/mL,<90%
N/C(=N\NC(CC(=O)c1ccc(Cl)cc1)c1cccnc1)c1ccccn1,H37Rv,,,MIC,,1 µg/mL
COc1ccc(C(=O)Cc2nc3nnc(NC(=O)Nc4ccc(Cl)cc4)n3[nH]c2=O)cc1,H37Rv,,BACTEC,MIC bound,,>12.5 µg/mL
CC1CCCC2(C1)SCC(=O)N2NC(=O)C(O)(c1ccccc1)c1ccccc1,H37Rv,,,inhibition,6.25 µg/mL,4%
Cc1c(CN2CCN(C)CC2)cc(-c2ccc(Cl)cc2)n1-c1ccc(Cl)cc1,103471,,,MIC,,0.7 µg/mL
CC1SC2(CCCCC2C)N(NC(=O)C(O)(c2ccccc2)c2ccccc2)C1=O,H37Rv,,,inhibition,6.25 µg/mL,38%
Cc1cccc(C(=O)CC(N/N=C(\N)c2ccccn2)c2cccnc2)c1,H37Rv,,,MIC,,2 µg/mL
Cc1ccc(C2Cc3nc4ccc(Cl)cc4c(-c4ccccc4)c3S2)cc1,H37Rv,,agar,MIC,,8.07 µM
O=C(NCCO)N/N=C(\CCN1CCCCC1)c1ccc([N+](=O)[O-])o1,H37Rv,,BACTEC,MIC,,≥12.5 µg/mL
CCCN1CCN(c2cc(=O)c3nc4c(oc3c2)c2c(=O)c3c(O)c(C)c5c(c34)=C(O)[C@@](C)(O/C=C/[C@H](OC)[C@@H](C)[C@@H](OC(C)=O)[C@H](C)[C@H](O)[C@H](C)[C@@H](O)[C@@H](C)/C=C/C=C(/C)C(=O)N2)O5)CC1,20 strains,,,MIC90,,0.07 µg/mL
O=C(O)CCC(=O)SCC1CS1,H37Rv,,,MIC,,25 µg/mL
COc1ccc(C2OC(c3ccncc3)=NN2C)c(OC)c1,H37Rv,,,MIC,,>20 µg/mL
Cc1c(CN2CCN(C)CC2)cc(-c2ccc(Cl)cc2)n1Cc1ccccc1,103471,,,MIC,,4 µg/mL
N/C(=N\NC(CC(=O)c1ccc(-c2ccccc2)cc1)c1cccnc1)c1ccccn1,H37Rv,,,MIC,,32 µg/mL
CC1COc2c(N3CCN(C)CC3)c(F)cc3c(=O)c(C(=O)O)cn1c23,20 strains,,,MIC50,,0.02 µg/mL
CCSCC(=O)OCC(S)CS,H37Rv,,,MIC,,25 µg/mL
Cc1c(CN2CCN(C)CC2)cc(-c2ccc(Cl)cc2)n1C1CCCCC1,103471,,,MIC,,8 µg/mL
CCCCCCCCCCCCCCCCNCc1ccc(F)cc1,H37Ra,,,MIC,,<25 µg/mL
Cc1[nH]c(-c2ccc(Cl)cc2)c(CN2CCOCC2)c1CN1CCOCC1,103471,,,MIC,,>64 µg/mL
NCC(=O)N/N=C/c1ccc([N+](=O)[O-])o1,H37Rv,,BACTEC,MIC bound,,≤12.5 µg/mL
CCCCCCCCCCCCCCC/C=C\C(=O)N(O)CCCC[C@H](NC(=O)[C@@H]1COC(c2ccccc2O)=N1)C(=O)O[C@@H](C)CC(=O)N[C@H]1CCCCN(O)C1=O,H37Rv,,,EC50,,<12.5 µg/mL
CC(C)(C)NC(=O)[C@@H]1CN(Cc2cccnc2)CCN1C[C@@H](O)C[C@@H](Cc1ccccc1)C(=O)N[C@H]1c2ccccc2C[C@H]1O,H37Rv,,resazurin,inhibition,6.25 µg/mL,0%
N/C(=N\NC(CC(=O)c1ccccc1)c1cccnc1)c1ccccn1,H37Rv,,,MIC,,16 µg/mL
COc1ccc2c(c1)Sc1c(Cl)c3c(c(Cl)c1=N2)Sc1cc(OC)ccc1N=3,H37Rv,,BACTEC,MIC,,≥12.5 µg/mL
Cc1cc(CN2CCOCC2)c(C)n1Cc1ccccc1,103471,,,MIC,,>64 µg/mL
CCCCCCCCCCCCCCCCNCc1ccncc1,Sensitive strains,,,MIC,,3.12 µg/mL
O=C1OCC2(CO)SC(c3ccccc3)NC12,H37Rv,,BACTEC,inhibition,12.5 µg/mL,15%
CN1N=C(c2ccncc2)OC1c1ccccc1,6 PI,,,MIC,,>20 µg/mL
O=C(Nc1cccnc1)c1ccc([N+](=O)[O-])s1,H37Rv,VERO,resazurin,MIC,,1.56 µg/mL
CC[C@@H]1C(=O)OC[C@@H]1Cc1cncn1C,H37Rv,,,MIC,,>100 µg/mL
CCCC1CCC2(CC1)SCC(=O)N2NC(=O)C(O)(c1ccccc1)c1ccccc1,H37Rv,,,inhibition,6.25 µg/mL,38%
COC(=O)CCC(=O)SCC1CS1,H37Rv,,,MIC,,1.56–3.125 µg/mL
NNc1ccc2cccc(O)c2n1,H37Rv,,BACTEC,MIC,,≥12.5 µg/mL
CCCCCCCCCCCCNC(CC(=O)OCC)c1cccc([N+](=O)[O-])c1,Sensitive strains,,,MIC,,6.25 µg/mL
N/C(=N\NC(CC(=O)c1ccc(Cl)c(Cl)c1)c1ccncc1)c1ccccn1,H37Rv,,,MIC,,2 µg/mL
C=CCN1C(=O)CS/C1=N/NC(=O)c1cc(-c2cc(F)cc(F)c2)ccc1O,H37Rv,,BACTEC,inhibition,6.25 µg/mL,<90%
CN1N=C(c2ccncc2)OC1c1cccc(Cl)c1,H37Rv,,,MIC,,5 µg/mL
O=C(CCCl)SCC1CS1,H37Rv,,,MIC,,6.25 µg/mL
CO[C@H]1/C=C/O[C@@]2(C)Oc3c(C)c(O)c4c(O)c(c5c(c4c3C2=O)NC2(CCN(CC(C)C)CC2)N=5)=NC(=O)/C(C)=C\C=C\[C@H](C)[C@H](O)[C@@H](C)[C@@H](O)[C@@H](C)[C@H](OC(C)=O)[C@@H]1C,20 strains,,,MIC90,,0.035–0.07 µg/mL
c1coc(-c2nnc(SCc3cccc4ccccc34)o2)c1,,,fluorescence,MIC,,3.3 µM
COc1ccc(NC(=S)NNC(=O)c2cc(-c3cc(F)cc(F)c3)ccc2O)cc1,H37Rv,,BACTEC,inhibition,6.25 µg/mL,<90%
O=C1CSC2(CCCC2)N1NC(=O)C(O)(c1ccccc1)c1ccccc1,H37Rv,,,inhibition,6.25 µg/mL,0%
COc1cc(N=Nc2ccc(C(=O)N(C)C)cc2)c(C)cc1N,H37Rv,,BACTEC,MIC,,≥12.5 µg/mL
Cc1cc(C)c2sc(NN3CCCC3)nc2c1,H37Rv,,agar,EC90,,1.75 µg/mL
Cc1cc(=O)c2c([nH]1)c1c(c3[nH]c(C)cc(=O)c32)Oc2ccccc2O1,EMB-R,,,MIC,,1.6 µg/mL
C[C@@H]1CN(c2c(F)c(N)c3c(=O)c(C(=O)O)cn(C4CC4)c3c2F)C[C@H](C)N1,20 strains,,,MIC50,,≤0.01 µg/mL
CC(C)(C)OCOC(=O)c1cnccn1,KK11-20,,,MIC,,50 µg/mL
CCCCCCCCCCCCCCCC(=O)SCC1CS1,H37Rv,,,MIC,,>50 µg/mL
CC1SC2(CCCC2)N(NC(=O)C(O)(c2ccccc2)c2ccccc2)C1=O,H37Rv,,,inhibition,6.25 µg/mL,0%
Cc1ccc(C(=O)CC(N/N=C(\N)c2ccccn2)c2cccnc2)cc1,H37Rv,,,MIC,,1 µg/mL
CC1SC2(CCC(c3ccccc3)CC2)N(NC(=O)C(O)(c2ccccc2)c2ccccc2)C1=O,H37Rv,,,inhibition,6.25 µg/mL,86%
Cc1ccc2nc3c(C)cc(=O)cc-3sc2c1,H37Rv,,BACTEC,MIC bound,,≤12.5 µg/mL
CCCCCCCCNC(CCO)c1cccc([N+](=O)[O-])c1,H37Ra,,,MIC,,<25 µg/mL
O=C(NN1C(=O)CSC1c1ccccc1F)c1cc(-c2cc(F)cc(F)c2)ccc1O,H37Rv,,BACTEC,inhibition,6.25 µg/mL,<90%
CCCCCCn1c(C)cc(CN2CCOCC2)c1C,103471,,,MIC,,8 µg/mL
O=C1N(CCCl)CCN1c1ccccc1,H37Rv,,BACTEC,MIC bound,,>12.5 µg/mL
c1csc(-c2noc(-c3ccc4c(c3)OCO4)n2)c1,,,fluorescence,inhibition,20 µM,10%
C1CC[N+]2(CC1)CCCCC2.NC(=S)[S-],H37Rv,,BACTEC,MIC bound,,≤12.5 µg/mL
CN1N=C(c2ccncc2)OC1c1cccc(C(F)(F)F)c1,H37Rv,,,MIC,,5 µg/mL
C=C(C)C(=O)O[C@H]1C[C@@]23O[C@@H]2CC/C(=C/[C@H]2OC(=O)C(=C)[C@H]12)CO[C@@H]3O,H37Rv,,BACTEC,MIC bound,,>12.8 µg/mL
CCCCCCn1c(C)c(CN2CCOCC2)c(CN2CCOCC2)c1-c1ccc(Cl)cc1,103471,,,MIC,,8 µg/mL

The first 12 rows once more:

smiles | strain | cell line | read by | measure | tested at | result
CCN(CC)CC[n+]1ccc2c(C)c3[nH]c4ccc(O)cc4c3c(C)c2c1.[Cl][Pt-2]([Cl])([Cl])[Cl].[H+] | H37Rv |  | resazurin | inhibition | 6.25 µg/mL | 90%
CCCCCCCCCCCCNC(CC(=O)OCC)c1ccc([N+](=O)[O-])cc1 | H37Ra |  |  | MIC |  | >25 µg/mL
O=[N+]([O-])c1cccc(C2Cc3nc4ccc(Cl)cc4c(-c4ccccc4)c3S2)c1 | H37Rv |  | agar | MIC |  | 1.86 µM
COc1ccc(C(=O)NC2C(OC(C)=O)OC(COC(C)=O)C(OC(C)=O)C2OC(C)=O)cc1 | H37Rv |  | BACTEC | inhibition | 12.5 µg/mL | -6%
CC(C)c1ccc(C2Cc3nc4ccccc4c(-c4ccccc4)c3S2)cc1 | H37Rv |  | agar | MIC |  | 32.76 µM
CCN(CC)Cc1cc(C(C)(C)C)cc(-c2ccccc2)c1O | H37Rv |  | BACTEC | inhibition | 12.5 µg/mL | 84%
O=C(O)CC[N+](=O)[O-] |  |  | fluorescence | MIC |  | 74 µM
N=C(N)c1ccc(-c2ccc(-c3ccc(C(=N)N)cc3)o2)cc1 | H37Rv |  | BACTEC | MIC |  | 64.09 µg/mL
C/C=C1/CN2[C@H]3C[C@@H]1[C@@H](CO)[C@@H]2Cc1c3[nH]c2ccc(OC)cc12 | H37Rv |  |  | MIC |  | >200 µg/mL
CCCCCCCCC=CCCCCCCCCNCc1ccc(OC)c(OC)c1 | Sensitive strains |  |  | MIC |  | 3.12 µg/mL
COc1ccc2ccc(=O)oc2c1CC(=O)C(C)C | H37Rv |  |  | MIC |  | 200 µg/mL
C=C/C(C)=C/C[C@H]1C(=C)CCC2[C@]1(C)CCC[C@]2(C)C(=O)O | H37Ra |  |  | EC50 |  | 14.6 µg/mL

MIC50, MIC90 and the like: level of inhibition, or share of isolates inhibited. Inhibition is in % at the dose shown (toxicity tests: loss of growth or viability). MIC bound comes from a single tested concentration. An empty or dashed field is not shown. Two numbers with a dash give a range or band. ECn is the concentration giving n% inhibition of infection, replication or growth.